Results as given in ChEMBL document CHEMBL6078645, “Expanding the Solvent/Protein Region Occupation of the Non-Nucleoside Reverse Transcriptase Inhibitor Binding Pocket for Improved Broad-Spectrum Anti-HIV-1 Efficacy: from Rigid Phenyl-Diarylpyrimidines to Flexible Hydrophilic Piperidine-Diarylpyrimidines” (J Med Chem, 2024).

Assay: Selectivity index, ratio of CC50 for cytotoxicity against human MT4 cells assessed as reduction in cell viability to EC50 for antiviral activity against wild type HIV-1 IIIB infected in human MT4 cells assessed as protection against virus-induced cytopathic effect
Format: toxicity, cell-based
Details: read-out: Ratio CC50/EC50

Structure (SMILES): Cc1cc(C#N)cc(C)c1Oc1nc(Nc2ccc(C#N)cc2)nc(N)c1Br [ETRAVIRINE]
- selectivity ratio: > 1500
